PubChem BioAssay AID504761 | Drosophila RNAi Screening Center, 2011
Aim: 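Genome-wide fly cell screen for genes dengue virus requires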 (primary screen). Cells: D.Mel-2 cells from Drosophila. Knock-down reagent: long dsRNA against Drosophila genes. Treatment: infection with dengue virus type 2; dose and infection time not stated. Detection: 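Cells stained for dengue envelope protein and imaged; percent of infected cells per well on duplicate plates, ranked by infection, with stained nuclei counted for cell number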. Direction: infection score: higher = more virus-infected cells; cell count: higher = more cells in the well. Hit rule: 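Very low infection ranking in both replicate wells (chance probability at most 0.065), then a retest showing infection dropped 1.5-fold or more at p below 0.05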. Calls: active = confirmed: knock-down lowers infection; inactive = not picked or not confirmed.
In all, the deposit lists about 22,000 reagents; below is an unselected part of those with a known target gene and a result. Of all reagents, 116 (0.52%) got an active call. 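Calls depend on retest data that are not deposited; infection was ranked per plate without normalising between plates; the unit of the infection score is not given.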 The raw values are shown without normalisation. The numbers tell different reagents against one gene apart. Further read-outs or replicates are left out here. The record does not give: the amount of reagent, the time to read-out.

| Target gene | dsRNA no. | infection score, replicate 1 | infection score, replicate 2 | cell count, replicate 1 | Call |
| --- | --- | --- | --- | --- | --- |
| CG4627 | 1 | 6.43 | 3.62 | 6188 | inactive |
| Cpr65Ec | 1 | 4.58 | 2.42 | 6640 | inactive |
| Cpr65Ec | 2 | 21.4 | 8.58 | 5853 | inactive |
| flr | 1 | 8.07 | 9.49 | 4722 | inactive |
| Cpr78E | 1 | 1.79 | 4.71 | 6161 | inactive |
| kud | 1 | 2.05 | 3.12 | 6597 | inactive |
| CG34409 | 1 | 0.68 | 2.35 | 6361 | inactive |
| CG34409 | 2 | 1.82 | 3.4 | 5870 | inactive |
| Rrp47 | 1 | 4.89 | 2.54 | 6216 | inactive |
| Rrp47 | 2 | 5.48 | 5.68 | 6520 | inactive |
| vlc | 1 | 4.98 | 11.3 | 6327 | inactive |
| toc | 1 | 4.41 | 1.04 | 5557 | inactive |
| toc | 2 | 1.94 | 5.8 | 6123 | inactive |
| toc | 3 | 6.43 | 2.62 | 6279 | inactive |
| CG3515 | 1 | 1.82 | 13.3 | 6493 | inactive |
| PGRP-SB1 | 1 | 1.5 | 2.28 | 6582 | inactive |
| alien | 1 | 20.8 | 18.1 | 4553 | inactive |
| AnxB9 | 1 | 3.49 | 4.03 | 6152 | inactive |
| AnxB9 | 2 | 4.05 | 7.76 | 6093 | inactive |
| CG14689 | 1 | 1.43 | 3.78 | 5805 | inactive |
| CG14689 | 2 | 16.1 | 18.4 | 6072 | inactive |
| Mtr3 | 1 | 7.52 | 3.58 | 5852 | inactive |
| Mtr3 | 2 | 5.66 | 15.2 | 5762 | inactive |
| CG4768 | 1 | 9.68 | 6.56 | 6093 | inactive |
| Mfap1 | 1 | 15.2 | 25.1 | 2130 | inactive |
| Mfap1 | 2 | 21.6 | 0.29 | 3373 | inactive |
| CG14095 | 1 | 4.96 | 7.64 | 6204 | inactive |
| Mdh1 (retired record) | 1 | 21.3 | 8.75 | 5137 | inactive |
| Kr-h2 | 1 | 4.08 | 2.14 | 5987 | inactive |
| Spn77Ba | 1 | 6.46 | 17.3 | 1950 | inactive |
| ltl | 1 | 2.07 | 5.81 | 6675 | inactive |
| ltl | 2 | 1.97 | 3.1 | 6555 | inactive |
| Mtk | 1 | 2.34 | 20.4 | 1367 | inactive |
| Mtk | 2 | 2.09 | 3.06 | 6362 | inactive |
| CG30383 | 1 | 2.16 | 0.47 | 6218 | inactive |
| Mt2 | 1 | 2.1 | 3.08 | 6756 | inactive |
| CG33630 | 1 | 3.3 | 6.03 | 6456 | inactive |
| CG34355 | 1 | 1.08 | 6.41 | 6790 | inactive |
| CG34355 | 2 | 0.78 | 4.63 | 6302 | inactive |
| CG34355 | 3 | 1.93 | 0.52 | 6481 | inactive |
| CG34355 | 4 | 3.34 | 4.83 | 5336 | inactive |
| Gclc | 1 | 9.3 | 10.3 | 5410 | inactive |
| CG4950 | 1 | 0.93 | 0.75 | 5782 | inactive |
| CG3309 | 1 | 1.61 | 4.54 | 6588 | inactive |
| CG3309 | 2 | 19.1 | 6.81 | 5443 | inactive |
| CG44838 | 1 | 11.7 | 4.7 | 6202 | inactive |
| CG44838 | 2 | 16.5 | 8.35 | 5595 | inactive |
| CG14787 | 1 | 5.44 | – | 6671 | inactive |
| roh | 1 | 0.55 | 0.29 | 5274 | inactive |
| CG14926 | 1 | 11.1 | 18 | 6201 | inactive |
| wls | 1 | 8 | 7.74 | 6091 | inactive |
| wls | 2 | 4.1 | – | 1072 | inactive |
| RpL10Ab | 1 | 3.85 | 4.07 | 2207 | inactive |
| RpL10Ab | 2 | 8.2 | 4.87 | 3441 | inactive |
| CG14071 | 1 | 0.81 | 0.78 | 6798 | active |
| Pfdn2 | 1 | 3.67 | 2.01 | 5992 | inactive |
| CG7829 | 1 | 4.8 | 1.55 | 3438 | inactive |
| CG7829 | 2 | 5.86 | 7.51 | 5326 | inactive |
